The labels stand for the following.
B1: BD56-1325 (protein)
chain 1: QITLKESGPTLVKPTQTLTLTCSFSGFSLTTSRVGVGWIRQPPGKALEWLALIYWDDDKRYNPSLKNRLTITKDTSKNQVVLKMTNMDPVDTATYYCAHSGDYYVSGSYRDEIWFDTWGQGALVTVSS
chain 2: SYELTQPPSVSVSPGQTARITCSGDTLRNQYVYWYQQKPGQAPVLVIFKDSERPSGIPERFSGSNSGTPVTLTITEVQAEDEADYYCQSADSRGVKFGGGTKLSVL
B2: BD56-1327 (protein)
chain 1: QVQLVQSGAEVRKPGSSVKVSCKASGGSFNSHVISWVRQAPGHGLEWMGRIIPVLGIVDYAQKFQDRVTITADKSTGTAYMELSSLRSEDTAVFYCARHQNTATTFGIGHYYGLDVWGQGTTVTVSS
chain 2: DIQMTQSPSTLSASVGDKVTITCRASQSISSWLAWYQQKPGKAPKLLISEASRLESGVPLRFSGSGSGTEFTLTISSLQPEDFATYYCQQYSTYPLFGQGTKVEIK
B3: BD56-1319 (protein)
chain 1: QVQLVQSGAEVKKPGSSVRVSCKASGGNLINLALSWVRQAPGQGLEWMGGIVPILDITNYALKFQGRVTITADKSSSTAYMELSSLRSEDTAVYFCATGVRYCGGGSCNSAYFDSWGQGTLVTVSS
chain 2: EIVLTQSPGTLSLSPGERATLSCRASQSISSSHLAWYQQKPGQAPRLLMYGASNRATGIPDRFSGSGSGTDFTLTISRLAPEDFAVYYCQQYGSSPQRTFGQGTKVEIK
B4: BD56-1328 (protein)
chain 1: QVQLVQSGAEVKKPESSVKVSCKASGGTLIDYAVSWVRQAPGQGLEWMGTIVPIVDMSNYAKRFQGRVTITADKSTSTAYMEVRSLRSEDTAVYYCATGGQYCSGGFCSSSYFDSWGQGTLVTVSS
chain 2: B3 chain 2 with S32A, M49I, T75S, G93S
B5: BD56-1338 (protein)
chain 1: EVQLVESGGGLVQPGGSLRLSCAASGFTFSNYDMHWVRQPTGKGLEWVSTIGTYGDTYYLDSVKGRFTISRDNAKKSLYLQVNSLRAGDTAVYYCARGEFSGLISYFDLWGRGTLLTVSS
chain 2: DIQMTQSPSSLSASVGDRVTITCRASQSIGSYLNWYQHKPGIAPKVLIYGASSLQSGVPSRFSGSGSGTDFTLTISSLQPEDFATYYCQQSYVTPPVTFGGGTKVEIK
B6: BD56-1330 (protein)
chain 1: EVQLVESGGGLVKPGGSLRLSCAASGFPFSTYGMNWVRQAPGKGLEWVSSISSSSSYISYADSVKGRFTISRDNAKNSLSLHMKSLRADDTAVYYCARDQRAHDEYSSGWLDYYYYNGMDVWGQGTTVTVSS
chain 2: QSVLTQPPSVSAAPGQKVTISCSGSSSNVGSNYVSWYQQLPGTAPKLLIYDDNKRPSVIPDRFSGSKSGTSATLAITGLQTGDEADYYCGAWDSSLTGWVFGGGTKLTVL
B7: BD56-1324 (protein)
chain 1: QVQLVESGGGVVQPGRSLRLSCEASGITFSGSGMHWVRQAPGKGLEWVALIWSDGRNKYYADFVKGRFTISRDNSKNTLYLQMNSLRAEDTAMYFCARETPGAGYPIDSWGQGTLVTVSS
chain 2: SYVLTQPPSVSVAPGKTARIPCGGNNIGSKSVHWYQQKPGQAPVLVVYDDSDRPSGIRERFSGSKSGNTATLIISRVEAGDEADYYCQVWDSSGDHVVFGGGTKLTVL
B8: BD56-1332 (protein)
chain 1: QVQLVESGGGVVQPGRSLRLSCAASGFTFSSYGMHWVRQAPGKGLEWVAVISYDGSNKHYGDSVKGRFTISRDKPKNTLYLQMNSLRVEDTAVYYCAKEVRGSSAFFSDGFDIWGQGTMVIVSS
chain 2: SYVLTQPPSVSLAPGTTARITCGGDNIGSKSVHWYQQKPGQAPELVVYYDSDRPSGIPERFSGSNSGNTATLTISRVEAGDEADYYCQVWDIGVLFGGGTKLTVL
B9: BD56-1337 (protein)
chain 1: QVQLVESGGGVVQSGRSLRLSCAASGFTFRRYGMHWVRQAPGKGLEWVAMIWYDGTNKYYADSVKGRFTISRDNSKNTLYLQMHSLKAEDTAVYYCARGFSSYDIMTGEEDAFDIWGQGTMVTVSS
chain 2: QSVLTQPPSVSAAPGQKVTISCSGGSSNIGNNYVSWYQQLPGTAPKLLIYDNNKRPSGIPDRFSGSKSGTSATLGITGLQTGDEADYYCGTWDRSLGAVVFGGGTKLTVL
B10: BD56-1336 (protein)
chain 1: QVQLQESGPGLVKPSETLSLTCTVSGDSVSPYCWSWVRQPPGEGLEWIAYTYYSGSTYYNPSLKNRVSISVDTSKNQFSLKLSSVTAADTAVYYCARLQYWDYWYFDLWGRGTLVTVSS
chain 2: QSALTQPASVSGSPGQSITISCSGTSSDVGGYNLVSWYQHHPGKAPKLLIYEGNKRPSGVSDRFSGSKSGNTASLTISGLQAEDEADYFCCSYAGSNTVVFGGRGGTKLTVL
B11: BD56-1340 (protein)
chain 1: QVQLQESGPGLVKPSQTLSLTCTVSGGSISNGDYYWIWIRQHPGRGLEWIAYIYYSGTTYYNPSLKSRVTISVDTSMNQFSLRLRSMTAADTAVYFCARVARGFYSDRIGSYAFDVWGRGTMVTVSS
chain 2: QSALTQPASVSGSPGQSITISCTGTSSDVGSYDLVSWYQQHPGKAPKLMIYEVIKRPSGISNRFSAAKSGNTASLTISGLQVEDEADYYCCSYVGSDWIFGGGTKLTVL
B12: BD56-1333 (protein)
chain 1: EVQLVESGGDLVQPGGSLRLSCAASGLIVSRNYMSWVRQAPGKGLEWVSVIYSGGSTFYADSVKGRFTISRDNSKNTLYLQMNSLGAEDTAIYYCARDLGVVGGTDVWGQGTTVTVSS
chain 2: EIVMTQSPATLSVSPGERATLSCRASQSVSSNLAWYQQKPGQPPRLLIYGASTRATGIPARFSGSGSGTEFTLTISSLQSEDFALYYCQQYNNWPPMYTFGQGTKLEIK

Where a chain is given by its changes, count along the chain named. Human monoclonal antibodies against the spike receptor-binding domain (heavy:light variable regions). IC50 against pseudoviruses bearing the spike of naturally observed variants; lower = stronger; >10 µg/ml means not reached at the top dose. No active / inactive call. The stated detection limit is 0.0005 µg/ml; values near or below 0.001 µg/ml lie at the floor of the assay. Some results are limits rather than exact numbers.

The first assay concerns the target SARS-CoV-2 Omicron BA.1 spike pseudovirus. The assay can be described thus: pseudovirus neutralization IC50; higher = weaker neutralization. As for the experimental part:
(§1)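 Single-round VSV luciferase pseudovirus mixed with antibody dilutions for 1 h and put on Huh-7 cells for about a day; IC50 from the dose curve.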
Consider B1, for which the “pseudovirus neutralization IC50” value was more than 10 µg/mL.

On to B2, for which the “pseudovirus neutralization IC50” value is 0.0998 µg/mL.

For the molecule B3, the “pseudovirus neutralization IC50” value was 0.012 µg/mL.

As for B4, the “pseudovirus neutralization IC50” value turned out to be 0.00383 µg/mL.

For B5, the “pseudovirus neutralization IC50” value was more than 10 µg/mL.

Take B6: the “pseudovirus neutralization IC50” value was 0.13 µg/mL.

On to B7, for which the “pseudovirus neutralization IC50” value amounted to 0.693 µg/mL.

As to B8, the “pseudovirus neutralization IC50” value was more than 10 µg/mL.

Consider B9, for which the “pseudovirus neutralization IC50” value was more than 10 µg/mL.

As for B10, the “pseudovirus neutralization IC50” value was more than 10 µg/mL.

For the molecule B11, the “pseudovirus neutralization IC50” value was more than 10 µg/mL.

As for B12, the “pseudovirus neutralization IC50” value was 0.00755 µg/mL.

In another assay the target is SARS-CoV-2 Omicron BA.2 spike pseudovirus. Described as above. On the procedure:
as §1
Take B1: the “pseudovirus neutralization IC50” value was more than 10 µg/mL.

For the molecule B2, the “pseudovirus neutralization IC50” value was 0.0836 µg/mL.

On to B3, for which the “pseudovirus neutralization IC50” value came out at 0.00218 µg/mL.

For B4, the “pseudovirus neutralization IC50” value came to 0.00104 µg/mL.

For B5, the “pseudovirus neutralization IC50” value amounted to 2.68 µg/mL.

Consider B6, for which the “pseudovirus neutralization IC50” value was 0.0818 µg/mL.

Turning to B7, the “pseudovirus neutralization IC50” value stood at 0.26 µg/mL.

As to B8, the “pseudovirus neutralization IC50” value is more than 10 µg/mL.

Take B9: the “pseudovirus neutralization IC50” value was more than 10 µg/mL.

Consider B10, for which the “pseudovirus neutralization IC50” value is more than 10 µg/mL.

With B11, the “pseudovirus neutralization IC50” value was more than 10 µg/mL.

As for B12, the “pseudovirus neutralization IC50” value turned out to be 0.00111 µg/mL.

The next assay has as its target SARS-CoV-2 Omicron BA.2.75 spike pseudovirus. The assay is described as above. As for the experimental part: as §1
For the molecule B1, the “pseudovirus neutralization IC50” value is more than 10 µg/mL.

On to B2, for which the “pseudovirus neutralization IC50” value came out at 0.11 µg/mL.

As for B3, the “pseudovirus neutralization IC50” value turned out to be 0.00351 µg/mL.

In the case of B4, the “pseudovirus neutralization IC50” value stood at 0.00206 µg/mL.

For the molecule B5, the “pseudovirus neutralization IC50” value was found to be 5.36 µg/mL.

For B6, the “pseudovirus neutralization IC50” value came to 0.0348 µg/mL.

As for B7, the “pseudovirus neutralization IC50” value is 0.312 µg/mL.

As for B8, the “pseudovirus neutralization IC50” value was more than 10 µg/mL.

In the case of B9, the “pseudovirus neutralization IC50” value was more than 10 µg/mL.

Consider B10, for which the “pseudovirus neutralization IC50” value was more than 10 µg/mL.

On to B11, for which the “pseudovirus neutralization IC50” value is more than 10 µg/mL.

B12: the “pseudovirus neutralization IC50” value came to 0.00628 µg/mL.

The next assay has as its target SARS-CoV-2 Omicron BA.5 spike pseudovirus. Described as above. As for the experimental part: as §1
On to B1, for which the “pseudovirus neutralization IC50” value was more than 10 µg/mL.

As to B2, the “pseudovirus neutralization IC50” value was more than 10 µg/mL.

Regarding B3, the “pseudovirus neutralization IC50” value was 1.58 µg/mL.

Consider B4, for which the “pseudovirus neutralization IC50” value was 0.147 µg/mL.

B5: the “pseudovirus neutralization IC50” value worked out at 4.64 µg/mL.

With B6, the “pseudovirus neutralization IC50” value was 0.13 µg/mL.

With B7, the “pseudovirus neutralization IC50” value came out at 6.47 µg/mL.

For B8, the “pseudovirus neutralization IC50” value is more than 10 µg/mL.

In the case of B9, the “pseudovirus neutralization IC50” value was more than 10 µg/mL.

With B10, the “pseudovirus neutralization IC50” value is more than 10 µg/mL.

With B11, the “pseudovirus neutralization IC50” value was more than 10 µg/mL.

For B12, the “pseudovirus neutralization IC50” value worked out at 0.00623 µg/mL.

The target of the next assay is SARS-CoV-2 Omicron BQ.1.1 spike pseudovirus. The assay is described as above. On the procedure:
as §1
Consider B1, for which the “pseudovirus neutralization IC50” value was more than 10 µg/mL.

B2: the “pseudovirus neutralization IC50” value is more than 10 µg/mL.

As to B3, the “pseudovirus neutralization IC50” value stood at 1.43 µg/mL.

As for B4, the “pseudovirus neutralization IC50” value turned out to be 0.228 µg/mL.

Turning to B5, the “pseudovirus neutralization IC50” value amounted to 5.23 µg/mL.

With B6, the “pseudovirus neutralization IC50” value amounted to 2.34 µg/mL.

Turning to B7, the “pseudovirus neutralization IC50” value was more than 10 µg/mL.

As to B8, the “pseudovirus neutralization IC50” value was more than 10 µg/mL.

B9: the “pseudovirus neutralization IC50” value was more than 10 µg/mL.

B10: the “pseudovirus neutralization IC50” value was more than 10 µg/mL.

On to B11, for which the “pseudovirus neutralization IC50” value was more than 10 µg/mL.

Take B12: the “pseudovirus neutralization IC50” value came out at 0.468 µg/mL.

For the next assay, the target named is SARS-CoV-2 Omicron XBB spike pseudovirus. The assay is described as above. As for the experimental part: as §1
For B1, the “pseudovirus neutralization IC50” value was more than 10 µg/mL.

As for B2, the “pseudovirus neutralization IC50” value is more than 10 µg/mL.

In the case of B3, the “pseudovirus neutralization IC50” value is more than 10 µg/mL.

Turning to B4, the “pseudovirus neutralization IC50” value is more than 10 µg/mL.

Consider B5, for which the “pseudovirus neutralization IC50” value was determined as 6.71 µg/mL.

Regarding B6, the “pseudovirus neutralization IC50” value came out at 1.61 µg/mL.

With B7, the “pseudovirus neutralization IC50” value was determined as 1.65 µg/mL.

B8: the “pseudovirus neutralization IC50” value was more than 10 µg/mL.

Consider B9, for which the “pseudovirus neutralization IC50” value was more than 10 µg/mL.

As for B10, the “pseudovirus neutralization IC50” value was more than 10 µg/mL.

Take B11: the “pseudovirus neutralization IC50” value was more than 10 µg/mL.

With B12, the “pseudovirus neutralization IC50” value was 0.472 µg/mL.

Another assay has as its target SARS-CoV-2 early D614G spike pseudovirus. The description is as above. On the procedure: as §1
Consider B1, for which the “pseudovirus neutralization IC50” value was more than 10 µg/mL.

With B2, the “pseudovirus neutralization IC50” value turned out to be 0.0785 µg/mL.

On to B3, for which the “pseudovirus neutralization IC50” value is 0.00402 µg/mL.

As for B4, the “pseudovirus neutralization IC50” value came out at 0.247 µg/mL.

With B5, the “pseudovirus neutralization IC50” value turned out to be 1.41 µg/mL.

As to B6, the “pseudovirus neutralization IC50” value worked out at 0.0449 µg/mL.

Turning to B7, the “pseudovirus neutralization IC50” value was found to be 1.26 µg/mL.

For B8, the “pseudovirus neutralization IC50” value was more than 10 µg/mL.

Take B9: the “pseudovirus neutralization IC50” value amounted to 4.15 µg/mL.

Turning to B10, the “pseudovirus neutralization IC50” value was more than 10 µg/mL.

Turning to B11, the “pseudovirus neutralization IC50” value is more than 10 µg/mL.

Turning to B12, the “pseudovirus neutralization IC50” value stood at 0.00594 µg/mL.
